At least one result comes from cells or an extract, where the contact may be indirect. Protein sequences can lack the tags named with them.

These results are taken from US20040248081, “LANA viral protein binding sites” (THE REGENTS OF THE UNIVERSITY OF MICHIGAN, published 2004).

For this data set, the target named is T1, endogenous LANA from BC-3 cells (Kaposi's sarcoma-associated herpesvirus) (UniProt Q9QR71).
T1 sequence (looked up, limits assumed): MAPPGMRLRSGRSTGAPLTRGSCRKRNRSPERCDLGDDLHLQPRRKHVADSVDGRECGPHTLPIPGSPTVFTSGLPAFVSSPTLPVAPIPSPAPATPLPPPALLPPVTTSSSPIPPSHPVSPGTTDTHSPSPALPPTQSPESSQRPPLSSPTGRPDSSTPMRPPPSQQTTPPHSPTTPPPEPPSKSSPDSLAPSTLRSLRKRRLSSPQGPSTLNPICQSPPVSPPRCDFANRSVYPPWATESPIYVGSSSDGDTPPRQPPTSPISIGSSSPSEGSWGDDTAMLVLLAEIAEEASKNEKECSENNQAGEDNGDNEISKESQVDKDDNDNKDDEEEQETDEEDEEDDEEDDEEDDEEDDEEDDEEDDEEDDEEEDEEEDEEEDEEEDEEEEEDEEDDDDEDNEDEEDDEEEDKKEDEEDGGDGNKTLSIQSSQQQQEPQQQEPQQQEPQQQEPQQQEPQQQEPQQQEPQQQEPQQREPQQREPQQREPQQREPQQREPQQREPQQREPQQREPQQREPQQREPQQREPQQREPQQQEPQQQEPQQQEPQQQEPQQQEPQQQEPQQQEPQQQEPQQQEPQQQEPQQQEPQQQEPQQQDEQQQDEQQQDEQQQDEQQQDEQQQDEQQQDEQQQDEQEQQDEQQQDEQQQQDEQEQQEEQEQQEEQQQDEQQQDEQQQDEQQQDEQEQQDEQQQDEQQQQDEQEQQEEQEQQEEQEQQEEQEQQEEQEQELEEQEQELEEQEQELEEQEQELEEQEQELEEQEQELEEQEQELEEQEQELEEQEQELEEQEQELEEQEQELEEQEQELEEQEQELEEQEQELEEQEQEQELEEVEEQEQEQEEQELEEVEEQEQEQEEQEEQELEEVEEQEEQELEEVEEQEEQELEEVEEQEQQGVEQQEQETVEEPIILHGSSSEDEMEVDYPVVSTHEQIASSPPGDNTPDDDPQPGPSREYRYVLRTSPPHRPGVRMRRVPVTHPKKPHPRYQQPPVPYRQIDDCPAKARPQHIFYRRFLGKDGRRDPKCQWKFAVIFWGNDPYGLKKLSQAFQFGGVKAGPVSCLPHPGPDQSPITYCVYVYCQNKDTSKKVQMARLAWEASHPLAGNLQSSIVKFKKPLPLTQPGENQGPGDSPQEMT
The data set is described as follows: EMSA. To be noted: at least six complexes; anti-LANA supershift; protein in an extract; label: radiolabel. Background: A gel shift assay detects complexes by their altered migration in electrophoresis.

For “TCCCGCCCGGGCATGGG (double strand) [TLBR4]”, the binding result is on record as “binds”.
